In the assay the target is biotinylated D614G SARS-CoV-2 spike trimer (SARS-CoV-2). Put plainly: AlphaLISA, inhibition of ACE2-muFc / biotinylated spike complex.

Broadly, the IC50 is the concentration at which inhibition is half-maximal. Lower therefore signals greater potency.

B1: bispecific monoclonal antibody 493-004 (bispecific antibody)
chain: EVQLVESGGGLVQPGGSLRLSCAASGFTFSPSWMGWFRQAPGKEREFVATINEYGGRNYADSVKGRFTISADNSKNTAYLQMNSLKPEDTAVYYCARVDRDFDYWGQGTLVTVSSGGGGS[no letters for human IgG1 Fc with C220S (EU numbers)]GGGSGGGGSASEVQLVESGGGLVQPGGSLRLSCAASGSTFSINAMGWFRQAPGKEREFVAGITSSGGYTNYADSVKGRFTISADNSKNTAYLQMNSLKPEDTAVYYCAADGVPEYSDYASGPVWGQGTLVTVSS
B1 returned an IC50 of 2.1 nM. In other words, the single-digit nanomolar range.

Source of the values: patent publication US20230002478A1 (TWIST BIOSCIENCE, published 2023).
